Consider 1 compound from paper PMC3855626 (Biochemistry, 2013).

Experiment [1] concerns M1 muscarinic receptors in sympathetic ganglia. The note with it: in vivo, iv; cited from earlier work.
The test system of experiment [2] is M1 – M4 muscarinic receptors. It is filed as binding, human.

Each structure is given as a SMILES string.

Consider `C[N+](C)(C)CC#CCOC(=O)Nc1cccc(Cl)c1.[Cl-]` [McN-A-343, [4-[[N-(3-chlorophenyl)carbamoyl]oxy]-2-butynyl] trimethylammonium chloride], for which the blood pressure response entry in experiment [1] is “elicits a pressor response”. For the same compound, the “Hill coefficients of the competition curves” value in experiment [2] is recorded as “approximately equal to one”.
